Data as given in paper PMC6191443, “Structural basis for arginine glycosylation of host substrates by bacterial effector proteins” (2018).

How the values were obtained:
[1] = molecular target: T1, SseK2 (Salmonella enterica, UniProt P0DUJ8); assay: UDP-Glo glycosyltransferase assay; conditions: co-substrate UDP-GlcNAc, pH 7.5, 4 mM MnCl2
[2] = molecular target: SseK1 (Salmonella enterica, UniProt A0A0H3NK84); assay: UDP-Glo glycosyltransferase assay; conditions: co-substrate UDP-GlcNAc, pH 7.5, 4 mM MnCl2
[3] = molecular target: NleB1 (Escherichia coli, UniProt Q8XBX8); assay: in vitro glycosylation, anti-Arg-GlcNAc Western blot; conditions: 1 mM UDP-GlcNAc, 10 mM MnCl2, pH 7.4, room temperature; acceptor FADD, TRADD or GAPDH
[4] = molecular target: T1, SseK2; assay: crystal structure; conditions: co-crystallized with 5 mM UDP and 5 mM MnCl2

`N=C(N)NCCC[C@H](N)C(=O)O` was tested, and the Km [1] was “enzyme kinetics using the L-arginine substrate and the purified recombinant SseK1 and SseK2” and the Km [2] was “enzyme kinetics using the L-arginine substrate and the purified recombinant SseK1 and SseK2”.

In the case of `CC(=O)N[C@H]1[C@@H](OP(=O)(O)OP(=O)(O)OC[C@H]2O[C@@H](n3ccc(=O)[nH]c3=O)[C@H](O)[C@@H]2O)O[C@H](CO)[C@@H](O)[C@@H]1O`, the “in vitro glycosylation, anti-Arg-GlcNAc Western blot” value [3] is reported as “WT NleB1, SseK1, and SseK2 glycosylated FADD”.

`O=c1ccn([C@@H]2O[C@H](COP(=O)(O)OP(=O)(O)O)[C@@H](O)[C@H]2O)c(=O)[nH]1` was tested, and the crystal structure [4] was “SseK2 was solved both in its unliganded form and in complex with UDP and UDP-GlcNAc”.
